Here are results for 75 compounds from PubChem BioAssay AID720596 (The Scripps Research Institute Molecular Screening Center, 2013).

The list shows a part of the results, in another mix than the full data. Activity calls are given as the source filed them. No stated cut-off is given here; in the data, active means inhibition above about 24%; inactive means the rest.

This test addresses Major prion protein (Homo sapiens) (UniProt P04156). Description: inhibitors of human cell surface prion protein PrPC, primary screen, cell-based, TR-FRET (AID 720596). Further: 0% = median of the test wells and 100% = reference compound wells. Conditions: TR-FRET read-out, at 13.8 µM, stronger effect = higher value.
Usually inhibition stands for the change of the read-out against control, counted positive when it falls. For the compound `CC(=O)NC(SC(=S)N(CC(C)C)CC(C)C)C(Cl)(Cl)Cl` (stereo not given), the inhibition was inactive: -7.49%.

Regarding `Cc1ccc(OP(=O)(Nc2ccccn2)Oc2ccc(C)cc2)cc1`, the inhibition was inactive: 3.98%.

Regarding `CC(C)(C)C(=O)NC(Sc1ccccc1)C(Cl)(Cl)Cl` (stereo not given), the inhibition was inactive: 2.58%.

Regarding `CCc1cc(O)c([N+](=O)[O-])c(C)c1[N+](=O)[O-]`, the inhibition is inactive: -3.98%.

Consider `O=P1(Nc2nc3ccc(Cl)cc3s2)COc2ccccc2O1` (stereo not given), for which the inhibition is inactive: -5.4%.

With `CCOc1ccc(C2=NCC(CBr)S2)cc1` (stereo not given), the inhibition is inactive: 5.12%.

Take `CC(=O)Nc1ccc([As](=O)(O)O)c(O)c1`: the inhibition was inactive: -6.53%.

In the case of `CC(=O)Nc1ccc(Oc2c([N+](=O)[O-])cc([N+](=O)[O-])cc2[N+](=O)[O-])cc1`, the inhibition is inactive: -20.1%.

Take `Cc1ccccc1CN(C)C(=O)COC(=O)C(O)(c1ccccc1)c1ccccc1`: the inhibition is inactive: 1.7%.

As for `C[C@H]1OP(=O)(Oc2ccccc2)C[C@@H]2O[C@@H]21` (stereo not given in full), the inhibition is inactive: 6.9%.

As to `C[C@@H]1C=CCP(=O)(Oc2ccccc2)O1` (stereo not given in full), the inhibition was inactive: 9.86%.

On to `CC(=O)c1ccc(N2CC2c2ccncc2)cc1` (stereo not given), for which the inhibition is inactive: 10.9%.

In the case of `N#C/C(=C\c1ccc(N(CCBr)CCBr)cc1)C(N)=O`, the inhibition was inactive: 0.04%.

In the case of `COC(=O)C1(C)COP(=O)(NCc2ccccc2)OC1` (stereo not given), the inhibition is inactive: -5.16%.

On to `c1nnnn1CCn1cnnn1`, for which the inhibition was inactive: 4.13%.

As to `CC(C)C(=O)NC(Sc1ccccc1)C(Cl)(Cl)Cl` (stereo not given), the inhibition is inactive: 5.62%.

As to `O=P(Nc1nccs1)(c1ccccc1)c1ccccc1`, the inhibition was inactive: -1.28%.

As for `O=P(Nc1nc2ccccc2s1)(c1ccccc1)c1ccccc1`, the inhibition is inactive: 1.46%.

On to `C[C@H]1OP(=O)(Oc2ccccc2)[C@H](O)[C@H](O)[C@H]1N=[N+]=[N-]` (stereo not given in full), for which the inhibition is inactive: -1.56%.

For the compound `O=P(Nc1ccccn1)(c1ccc(Br)cc1)c1ccc(Br)cc1`, the inhibition was inactive: 3.63%.

Take `CN(C)C1(CNC(=O)c2ccc(Cl)c(S(N)(=O)=O)c2)CCCCC1`: the inhibition was inactive: 5.87%.

As for `COc1ccc(N)c([N+](=O)[O-])c1[N+](=O)[O-]`, the inhibition was inactive: -14.4%.

In the case of `Nc1ccc(CCCCOc2ccccc2)cc1`, the inhibition was inactive: -1.4%.

As for `O=C(OC1CN2CCC1CC2)c1cccc(Cl)c1` (stereo not given), the inhibition is inactive: 2.68%.

Regarding `C/C(N)=N\P(=O)(OCc1ccccc1)OCc1ccccc1`, the inhibition is inactive: 6.99%.

As for `C(Cc1nn[nH]n1)Cc1nn[nH]n1`, the inhibition was inactive: 1.99%.

Regarding `Nc1ccc([As](=O)(O)c2ccc([N+](=O)[O-])cc2)cc1`, the inhibition is inactive: -11.1%.

Take `O=[As](O)(c1ccccc1)c1ccc(O)cc1`: the inhibition was inactive: -4.83%.

Turning to `CC(=O)NC(SC(=S)N(C)C)C(Cl)(Cl)Cl` (stereo not given), the inhibition is inactive: -3.68%.

For the compound `O=[N+]([O-])c1ncn(CCn2cnc([N+](=O)[O-])n2)n1`, the inhibition is inactive: 1.47%.

Take `O=C(Nc1cc([As](=O)(O)O)ccc1O)c1ccccc1`: the inhibition was inactive: 7.51%.

For `O=P1(N(CCCl)CCCl)OCCCS1` (stereo not given), the inhibition was inactive: 1.91%.

As for `O=C(O)CNc1ccc([As](=O)(O)O)cc1`, the inhibition is inactive: 3.21%.

Consider `COC(=O)C1(C)COP(=O)(Nc2ccccc2)OC1` (stereo not given), for which the inhibition was inactive: -10.1%.

In the case of `O=[N+]([O-])c1cccc(NC2=NCC(CBr)S2)c1` (stereo not given), the inhibition is inactive: -32.6%.

As for `O=[N+]([O-])c1ncn(CCn2ncnc2[N+](=O)[O-])n1`, the inhibition is inactive: -26.1%.

As to `CC(C)(C)C(=O)NC(Sc1ccncn1)C(Cl)(Cl)Cl` (stereo not given), the inhibition is inactive: 5.13%.

For the compound `Cc1ccc(NP(=O)(Oc2ccccc2)Oc2ccccc2)nc1`, the inhibition is inactive: 10.9%.

For the compound `CCc1nc2c(n1)c1c(non1O)c1c2no[n+]1[O-]`, the inhibition was inactive: -32%.

Regarding `O=[N+]([O-])c1cc([N+](=O)[O-])c(CCNc2ccccc2)c([N+](=O)[O-])c1`, the inhibition was inactive: -40.2%.

As to `O=[N+]([O-])c1cccc2n[nH]nc12`, the inhibition is inactive: -17.6%.

With `CC(=O)N1C2C3N(C(C)=O)C1C1N(C(C)=O)C(C(N1C(C)=O)N3C(C)=O)N2C(C)=O`, the inhibition was inactive: 4.84%.

For `COc1ccc(C2=NCC(CBr)S2)cc1` (stereo not given), the inhibition was inactive: -1.65%.

As to `CC1CCN(C(=O)Oc2c(Cl)cc(Cl)c3cccnc23)CC1`, the inhibition is inactive: -9.55%.

Take `c1cc(-c2nn[nH]n2)ccc1-c1nn[nH]n1`: the inhibition is inactive: 2.05%.

`CC(C)c1nc(Nc2ccccc2)n(P(=O)(N(C)C)N(C)C)n1`: the inhibition is inactive: 3.82%.

As to `CC(C)=N/N=C(\N)N[N+](=O)[O-]`, the inhibition was inactive: -0.87%.

Regarding `CN(C)C(=O)OCCc1n(C)cc[n+]1C`, the inhibition was inactive: -0.6%.

Consider `CCN(/C(=N/P(=O)(N1CCOCC1)N1CCOCC1)N1CCOCC1)c1ccc(OC)cc1`, for which the inhibition was inactive: 5.28%.

For the compound `Nc1ccc([As](=O)(O)c2ccc(N)cc2)cc1`, the inhibition is inactive: -0.61%.

Turning to `C[N+]1=C2C=CC=CC=C2SC12C([N+](=O)[O-])=CC([N+](=O)[O-])=C[C-]2[N+](=O)[O-]` (stereo not given), the inhibition was inactive: -21.4%.

For the compound `CN1CCCC(OC(=O)C(c2ccccc2)c2ccccc2)C1` (stereo not given), the inhibition was inactive: -8.24%.

Turning to `Clc1ccc(Cl)c(NC2=NCC(CBr)S2)c1` (stereo not given), the inhibition is inactive: 0.56%.

`COc1ccccc1OP(=O)(Nc1ccc(C)cn1)Oc1ccccc1OC`: the inhibition was inactive: -7.16%.

As to `Cc1ccc(OP(=O)(Nc2nccs2)Oc2ccc(C)cc2)cc1`, the inhibition was inactive: 7.06%.

For `CN(C(=O)Cc1ccc(Cl)c(Cl)c1)[C@H]1CCCC[C@H]1N1CCCC1`, the inhibition is inactive: 0.6%.

`Cc1ccc(N/C(=N/P(=O)(N2CCOCC2)N2CCOCC2)N2CCOCC2)cc1`: the inhibition is inactive: 4.07%.

On to `NC(=O)c1cc([N+](=O)[O-])cc([N+](=O)[O-])c1N`, for which the inhibition is inactive: -49.5%.

As to `Oc1ccccc1CNc1ccccn1`, the inhibition was inactive: 0.07%.

As for `O=C(NC(Sc1ccncn1)C(Cl)(Cl)Cl)c1ccccc1` (stereo not given), the inhibition is inactive: -6.74%.

`Nc1cc(N)c2nonc2c1[N+](=O)[O-]`: the inhibition was inactive: -29.4%.

As to `CC(C)CC(=O)NC(Sc1ccc(Cl)cc1)C(Cl)(Cl)Cl` (stereo not given), the inhibition is inactive: 0.6%.

On to `CCn1c(=O)n(C2CCN(CC3CCCCCCC3)C[C@H]2CO)c2ccccc21` (stereo not given in full), for which the inhibition was inactive: 6.66%.

Take `Cc1cc(SC(NC(=O)c2ccc(F)cc2)C(Cl)(Cl)Cl)ncn1` (stereo not given): the inhibition is inactive: 8.12%.

Regarding `CCOP(=O)(Nc1ccccc1)OCC`, the inhibition was inactive: 3.4%.

As to `Cc1ccc(NP(=O)(Oc2ccccc2F)Oc2ccccc2F)nc1`, the inhibition was inactive: 7.2%.

`CN(C(=O)Cc1ccc(Cl)c(Cl)c1)[C@H]1CCCC[C@@H]1N1CCCC1`: the inhibition was inactive: -6.6%.

Turning to `O=P(Nc1nc2ccc(Cl)cc2s1)(c1ccccc1)c1ccccc1`, the inhibition is inactive: -2.05%.

For the compound `CN(C)P(=O)(N(C)C)n1c(Nc2ccccc2)nnc1-c1ccccc1`, the inhibition is inactive: -3.38%.

Turning to `CC(=O)Nc1ccc([As](=O)(O)O)cc1`, the inhibition was inactive: -8.31%.

With `O=C(O)c1ccccc1[As](=O)(O)O`, the inhibition was inactive: 0.82%.

`CCCC1OP(N)(=O)OCC1CC` (stereo not given): the inhibition was inactive: 7.67%.

Regarding `Nc1cccc2ccc([As](=O)(O)O)cc12`, the inhibition was inactive: -12.6%.

`CN(C(=O)Cc1ccccc1)C1CC[C@@]2(CCCO2)C[C@@H]1N1CCCC1` (stereo not given in full): the inhibition was inactive: 8.65%.

With `CCN(N=Nc1nonc1N)c1nonc1N`, the inhibition is inactive: 3.22%.
